Values from PubChem BioAssay AID504761 (Drosophila RNAi Screening Center, 2011).

Test: 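Insect host genes that dengue virus relies on to spread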 (primary screen)
System: D.Mel-2 cells from Drosophila
Knock-down reagent: long dsRNA against Drosophila genes
Treatment: infection with dengue virus type 2; dose and infection time not stated
Read-out: 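Cells stained for dengue envelope protein and imaged; percent of infected cells per well on duplicate plates, ranked by infection, with stained nuclei counted for cell number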
Scale: infection score: higher = more virus-infected cells
Rule for the call: 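Low infection ranks in the two replicates (chance level up to 0.065) followed by a retest with a 1.5-fold or larger significant decrease, p below 0.05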
Meaning of the calls: active = confirmed: knock-down lowers infection; inactive = not picked or not confirmed
In all, the deposit lists about 22,000 reagents; below is a random part of those that have a named target and a result. Over the whole deposit, 116 (0.52%) got an active call. 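Calls depend on retest data that are not deposited; infection was ranked per plate without normalising between plates; the unit of the infection score is not given.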 A plus sign joins genes that one reagent is predicted to hit. Not all columns of the deposit are shown. The record does not give: the amount of reagent, the time to read-out.

Which result is listed for l(3)04053 (GeneID 46158) [DRSC11640]?
infection score, replicate 1: 5.18; outcome: inactive

How did the screen score drd (GeneID 318102) [DRSC19343]?
infection score, replicate 1: 5.23; outcome: inactive

What did the screen give for drd (GeneID 318102) [DRSC21466]?
infection score, replicate 1: 2.49; outcome: inactive

For drd (GeneID 318102) [DRSC26473], how do the results read?
infection score, replicate 1: 1.28; outcome: inactive

With h-cup + Rbp [DRSC14990], what does the deposit list?
infection score, replicate 1: 3.85; outcome: inactive

With CG13313 (GeneID 39022) [DRSC09984], what was measured?
infection score, replicate 1: 2.36; outcome: inactive

What is on record for CG13313 (GeneID 39022) [DRSC28463]?
infection score, replicate 1: 16.1; outcome: inactive

How did the screen score Npc2f (GeneID 42864) [DRSC15980]?
infection score, replicate 1: 4.18; outcome: inactive

How did the screen score Targ (GeneID 36630) [DRSC06206]?
infection score, replicate 1: 4.48; outcome: inactive

What did the screen give for Cbp20 (GeneID 42166) [DRSC16601]?
infection score, replicate 1: 8.7; outcome: inactive

Which result is listed for CG18262 (GeneID 31745) [DRSC18149]?
infection score, replicate 1: 1.54; outcome: inactive

Which result is listed for CG18262 (GeneID 31745) [DRSC24242]?
infection score, replicate 1: 6.56; outcome: inactive

For mEFTs (GeneID 35060) [DRSC02953], how do the results read?
infection score, replicate 1: 11; outcome: inactive

What is on record for mEFTs (GeneID 35060) [DRSC30019]?
infection score, replicate 1: 2.8; outcome: inactive
